Literature values in patent US20090178587A9, “Control of biofilms in industrial water systems” (priority 2001, published 2009).

Columns and labels:
[1] = test system: biofilm-associated Legionella; settings: result in words; cited from earlier work
[2] = test system: biofilms consisting of a consortium of Legionella, heterotrophic bacteria and amoebae; settings: 48 hours contact; chlorine 2 to 4 ppm, BCDMH 10 ppm, glutaraldehyde 100 ppm active; result in words; cited from earlier work

chlorine
effect on levels of biofilm-associated Legionella [1]: non detectable levels
efficacy against biofilm-associated heterotrophic bacteria and Legionella [2]: rapid reductions
